Test results as given in paper PMC3567243 (Molecular Microbiology, 2012).

System: CC1=CC(=O)c2ccccc2C1=O
Assay: purified protein

(Mycobacterium tuberculosis H37Rv) was tested, and the Km was 47.14 ± 9.87 µM and the kcat/Km was 6670 M⁻¹ s⁻¹.
